Measured values from several laboratories, pooled; numbers as filed in NIAID ChemDB.

All rows: tests in culture; agent: Mycobacterium tuberculosis

Inhibition is in % at the dose shown (toxicity tests: loss of growth or viability).

smiles,cell line,conditions,measure,method,changes,strain,dose,value
CCc1nc2ccc(C)cc2n1CCCNc1ccc(C)cc1C,,,fold resistance,turbidity / fluorescence,QcrB M342T,H37Rv,,6.2
COc1cc([C@@H]2OC[C@H]3[C@@H]2CO[C@H]3c2cc(OC)c3c(c2)OCO3)cc(OC)c1OC,,,inhibition,BACTEC,,H37Rv,12.5 µg/mL,0%
CCc1nc2ccc(C)cc2n1CCCCSc1ccc(OC)cc1,,,MIC90,turbidity / fluorescence,WT,H37Rv,,9.4 µM
Cc1cc(Cl)ccc1NC(=O)C(=O)Cc1occc(=O)c1O,,,inhibition,resazurin,,H37Rv,6.25 µg/mL,-6%
NC(=O)c1cnccn1,,7 d,inhibition,,,TB206,800 µg/mL,84.4%
COc1ccc(/C(CN2CCN(c3cc4c(cc3F)c(=O)c(C(=O)O)cn4C3CC3)CC2)=N\O)cc1,,,inhibition,,,H37Rv,6.25 µg/mL,52%
O=C(N/N=C/c1ccc([N+](=O)[O-])s1)c1ccccc1,,,EC50,,,H37Rv,,<6.25 µg/mL
CC(=O)Nc1cccc(/C=C/C(=O)c2ccccc2O)c1,,,MIC,,,H37Rv,,>12.5 µg/mL
O=C(N/N=C/c1ccncc1)c1ccc(F)cc1,,,EC50,,,H37Rv,,>6.25 µg/mL
Cc1cc(=O)c2c3c(ccc2[nH]1)Oc1ccccc1O3,,,MIC,BACTEC,,H37Rv,,≥12.5 µg/mL
CCCCCCCCCCOc1ccccc1NC(=O)OCCN(C)C,,,MIC,,,My 331/88,,8 µM
CNC(=O)CSc1nc(N)c2c3c(sc2n1)CC(C(C)(C)C)CC3,,,MIC,MTT / visual reading,,H37Rv,,>200 µg/mL
COc1nc(N)c(NC2OC[C@@H](O)[C@H](O)[C@H]2O)c(=O)n1C,,,MIC bound,resazurin,,H37Rv,,>6.25 µg/mL
CO[C@H]1/C=C/O[C@@]2(C)Oc3c(C)c(O)c4c(O)c(c5c(c4c3C2=O)NC2(CCN(CC(C)C)CC2)N=5)=NC(=O)/C(C)=C\C=C\[C@H](C)[C@H](O)[C@@H](C)[C@@H](O)[C@@H](C)[C@H](OC(C)=O)[C@@H]1C,,,MIC,,,29 (rifampicin-resistant),,>2 µg/mL
N[C@@H]1CN(c2c(F)cc3c(=O)c(C(=O)O)cn([C@@H]4C[C@@H]4F)c3c2Cl)CC12CC2,,,MIC90,resazurin,Pre-XDR (fluoroquinolone-resistant),Clinical strain,,0.5 µg/mL
NNC(=O)c1ccncc1,,,MIC,,,Pan-susceptible clinical isolate 3,,0.06 µg/mL
O=C1OC(c2ccccc2)=N/C1=C\c1cccs1,,,inhibition,BACTEC,,H37Rv,12.5 µg/mL,14%
CCCCCCCCS(=O)(=O)CC(N)=O,,,MIC,,,CSU93,,≤25 µg/mL
Cc1c(C(=O)c2ccccc2)[n+](=O)c2cc(Cl)ccc2n1[O-],VERO,,MIC,BACTEC,,H37Rv,,3.13 µg/mL
CCn1cc(C(=O)O)c(=O)c2cc(F)c(N3CCN(C/C(=N/O)c4ccc(F)cc4)CC3)cc21,,,MIC,,,H37Rv,,>6.25 µg/mL
COc1cc(OC)c2c(=O)cc(-c3ccc(OC)c(I)c3)oc2c1,,,MIC,,,H37Rv,,>12.5 µg/mL
C=CCn1c(-c2cc3ccccc3oc2=O)cs/c1=N\N=C\c1ccc(O)c(OCC)c1,,,inhibition,,,H37Rv,12.5 µg/mL,96%
CCCCCCCOc1ccc(NC(=O)OCC[NH+]2CCCC2)cc1,,,MIC,,,My 331/88,,16 µM
CC(=O)NC[C@H]1CN(c2ccc(N3CCOCC3)c(F)c2)C(=O)O1,,,MIC,,,7R,,0.5 µg/mL
COc1ccc(CCC2CCc3ccccc3N2C)cc1OC,,,MIC,,,MT3,,>100 µg/mL
CCOC(=O)CSc1nc(N)c2c3c(sc2n1)CC(C(C)(C)C)CC3,,,MIC,MTT / visual reading,,H37Rv,,0.39 µg/mL
NC(=O)c1cnccn1,,,MIC,,,Isolate 97-826,,300 µg/mL
CCOc1ccccc1NC(=O)OCCN1CCOCC1,,,MIC,,,My 331/88,,>1000 µM
CCCCn1c(-c2cc3cc(Br)ccc3oc2=O)cs/c1=N\N=C\c1ccc(Cl)cc1,,,MIC,,,H37Rv,,>12.5 µg/mL
COc1c(C(C)=O)cc([N+](=O)[O-])c2nc(C(C)(C)C)ccc12,,,inhibition,,,H37Rv,6.25 µg/mL,0%
O=c1cc(-c2ccccc2)oc2cc(F)ccc12,,,MIC,,,H37Rv,,>12.5 µg/mL
CCn1cc(C(=O)O)c(=O)c2cc(F)c(N3CCN(CC(=O)c4ccc(C)cc4)CC3)cc21,,,inhibition,,,H37Rv,6.25 µg/mL,17%
CC(C)(C)C1CCc2c(sc3nc(SCC(=O)Nc4ccccc4)nc(N)c23)C1,,,MIC,MTT / visual reading,,H37Rv,,>200 µg/mL
CCn1cc(C(=O)O)c(=O)c2cc(F)c(N3CCN(CC(=O)c4ccccc4)CC3)cc21,VERO,,EC50,,,H37Rv,,<6.25 µg/mL
COc1ccc2c(c1)[n+](=O)c(C(C)=O)c(C)n2[O-],,inside macrophages,EC50,,,H37Rv,,<6.7 µg/mL
CCCCn1c(-c2cc3ccccc3oc2=O)cs/c1=N\N=C\c1ccc(O)c(OCC)c1,,,MIC,,,H37Rv,,12.5 µg/mL
CC(=O)c1c(CBr)n([O-])c2cc(Cl)c(Cl)cc2[n+]1=O,,,inhibition,BACTEC,,H37Rv,6.25 µg/mL,0%
C/C=c1\[nH]c(=O)/c(=C/C=C/C)[nH]c1=O,,,MIC bound,BACTEC,,H37Rv,,>12.5 µg/mL
CCc1nc2ccccc2n1CCCCOc1ccccc1Cl,,,MIC90,turbidity / fluorescence,WT,H37Rv,,7.7 µM
O=[N+]([O-])c1ccc(-n2cc(CNC3c4ccccc4-c4ccccc43)nn2)cc1,,,MIC99,broth dilution,,Specimen 192,,>261 µM
CC/C(=C1\C=C(O)C(=O)C=C1OC)c1ccc(OC)cc1,,,inhibition,BACTEC,,H37Rv,12.5 µg/mL,0%
CC(C)(C)C1CCc2c(sc3nc(SCC(=O)OCc4ccccc4)nc(N)c23)C1,,,MIC,MTT / visual reading,,H37Rv,,1.5 µg/mL
CN(C)c1ccc(/C=N/NC(=O)c2ccc(F)cc2)cc1,,,EC50,,,H37Rv,,>6.25 µg/mL
CCCCCCCCOc1c(C(C)=O)cc(N)c2nccc(CC)c12,,,MIC,,,Rifampicin-resistant,,6.25 µg/mL
CO[C@H]1/C=C/O[C@@]2(C)Oc3c(C)c(O)c4c(O)c(c(/C=N/N5CCN(C6CCCC6)CC5)c(O)c4c3C2=O)NC(=O)/C(C)=C\C=C\[C@H](C)[C@H](O)[C@@H](C)[C@@H](O)[C@@H](C)[C@H](OC(C)=O)[C@@H]1C,,,MIC,,,Atencio,,0.06 µg/mL
C[C@]1(COc2ccc(N3CCC(Oc4ccc(OC(F)(F)F)cc4)CC3)cc2)Cn2cc([N+](=O)[O-])nc2O1,,,MIC90,,,49 strains (SM-susceptible),,0.012 µg/mL
CC12CCC(O1)C1C(=O)N(CC[N+](C)(C)C)C(=O)C12,,,MIC bound,BACTEC,,H37Rv,,>12.5 µg/mL
CO[C@H]1/C=C/O[C@@]2(C)Oc3c(C)c(O)c4c(O)c(c(/C=N/N5CCN(C/C=C/c6ccccc6)CC5)c(O)c4c3C2=O)NC(=O)/C(C)=C\C=C\[C@H](C)[C@H](O)[C@@H](C)[C@@H](O)[C@@H](C)[C@H](OC(C)=O)[C@@H]1C,,,MIC,,,MTB13 (INH-R),,≤0.06 µg/mL
COc1ccc(/C=C/C(=O)c2cc(C(=O)O)ccc2O)cc1,,,MIC,,,H37Rv,,>12.5 µg/mL
CCOC(=O)c1sc(N/N=C2/NC(=O)/C(=C/c3ccc([N+](=O)[O-])cc3)S2)nc1C,,,inhibition,resazurin,,H37Rv,6.25 µg/mL,-6%
CCCCCOc1ccc(NC(=O)OCC[NH+]2CCCC2)cc1,,,MIC,,,My 331/88,,62.5 µM
C=CCn1c(-c2cc3ccccc3oc2=O)cs/c1=N\N=C\c1ccc(Cl)cc1,,,EC50,,,H37Rv,,>12.5 µg/mL
O=c1[nH]c2cc(Cl)ccc2nc1/C=C(O)/C=C/c1ccccc1,,,inhibition,resazurin,,H37Rv,6.25 µg/mL,44%
CCn1cc(C(=O)O)c(=O)c2cc(F)c(N3CCN(CC(=O)c4ccc(OC)cc4)CC3)cc21,,,EC50,,,H37Rv,,>6.25 µg/mL
CCc1nc2ccccc2n1CCCCSc1nnc(-c2ccc(Cl)cc2)o1,,,fold resistance,turbidity / fluorescence,Rv1339 V90M,H37Rv,,10
Brc1ccc(-n2cc(CSC3c4ccccc4-c4ccccc43)nn2)cc1,,,MIC99,broth dilution,,H37Rv,,57.55 µM
CC1COc2c(N3CCN(C)CC3)c(F)cc3c(=O)c(C(=O)O)cn1c23,,,MBC,,,001-011 (drug-resistant),,1.5 µg/mL
CC1CCCCN1/N=N/c1nc2c([nH]1)c(=O)n(C)c(=O)n2C,,,MIC bound,resazurin,,H37Rv,,>6.25 µg/mL
c1cc2c(s1)CCOC21CCN(Cc2ccc3c(c2)OCCO3)CC1,,,fold resistance,fluorescence,MmpL3: Ala677Val,H37Rv,,1.6
O=C(CNC(=O)C(CO)NC(=O)C(Cc1cncn1C(=O)OCc1ccccc1)NC(=O)OCc1ccccc1)Oc1ccc([N+](=O)[O-])cc1,,,MIC bound,BACTEC,,H37Rv,,>12.8 µg/mL
COc1ccccc1NC(=O)OCCN(C)C,,,MIC,,,My 331/88,,1000 µM
Cc1ccc(NC(=S)NC=C(C(N)=O)C(N)=O)c(C)c1,,,inhibition,resazurin,,H37Rv,6.25 µg/mL,2%
CCc1ccnc2c(N)cc(C(C)=O)c(OC3CCCC3)c12,,,inhibition,,,H37Rv,6.25 µg/mL,47%
CCc1nc2ccc(C)cc2n1CCCCNc1ccccc1,,,MIC90,turbidity / fluorescence,QcrB M342T,H37Rv,,8.6 µM
Cc1cc2c(cc1C)[n+](=O)c(C(=O)c1ccccc1)c(C)n2[O-],,,inhibition,BACTEC,,H37Rv,6.25 µg/mL,68%
CCc1nc2ccccc2n1CCCCOc1ccc(C)c(C)c1,,,fold resistance,turbidity / fluorescence,Rv1339 V90M,H37Rv,,0.5
C[C@H]1COc2c(N3CCN(C)CC3)c(F)cc3c(=O)c(C(=O)O)cn1c23,,,MIC,,,9R,,0.5 µg/mL
Cc1ccc(-n2cc(CSC3c4ccccc4-c4ccccc43)nn2)cc1C,,,MIC99,broth dilution,,Specimen 192,,>261 µM
O=C(N/N=C/c1ccc([N+](=O)[O-])cc1[N+](=O)[O-])c1ccc(F)cc1,,,inhibition,,,H37Rv,6.25 µg/mL,39%
COC(=O)Nc1nc2ccc(SC)cc2c(=O)[nH]1,,,inhibition,BACTEC,,H37Rv,12.5 µg/mL,-8%
COc1ccc(-n2cc(CS(=O)(=O)C3c4ccccc4-c4ccccc43)nn2)cc1,,,MIC99,broth dilution,,Specimen 192,,120 µM
COc1ccc(/C=N/NC(=O)c2ccc(OCc3nc4ccccc4[nH]3)cc2)cc1,,,inhibition,BACTEC,,H37Rv,12.5 µg/mL,15%
O=c1cc(-c2cccc(I)c2)oc2ccccc12,,,MIC,,,H37Rv,,>12.5 µg/mL
OC[C@H]1O[C@@H](n2cnc3c2NC=NC[C@H]3O)[C@H](O)[C@@H]1O,,,inhibition,BACTEC,,H37Rv,12.5 µg/mL,21%
CCCCCc1cc(OC)c2ccccc2n1,,,MIC,,,MT8,,21 µg/mL
CCn1c(-c2cc3cc(Br)ccc3oc2=O)cs/c1=N\N=C\c1cc(Br)ccc1O,,,EC50,,,H37Rv,,<12.5 µg/mL
C=C[C@H]1CN2CC[C@H]1C[C@H]2[C@H](O)c1ccnc2ccc(OC)cc12,,,MIC,BACTEC,,H37Rv,,≥128 µg/mL
CC(C)(C)c1cc(C(C)(C)C)c2cccc([N+](=O)[O-])c2n1,,,inhibition,,,H37Rv,6.25 µg/mL,23%
COc1ccc(OC)c(N=Nc2sc(N)nc2C)c1,,,inhibition,BACTEC,,H37Rv,12.5 µg/mL,-5%
CC(=O)c1c(CN2CCN(c3ccc([N+](=O)[O-])cc3)CC2)n([O-])c2cc(C)c(C)cc2[n+]1=O,,,inhibition,BACTEC,,H37Rv,6.25 µg/mL,0%
O=c1c2cnc3c4cccnc4ccc3c2[nH]n1-c1ccccc1,,,inhibition,BACTEC,,H37Rv,12.5 µg/mL,8%
CC(=O)c1cc([N+](=O)[O-])c2nc(C(C)C)ccc2c1C(C)C,,,MIC,,,Ethambutol-resistant,,12.5 µg/mL
Oc1ccc2ccccc2c1C1=NNc2n[nH]c(=S)n2N1,,,MIC bound,BACTEC,,H37Rv,,>12.5 µg/mL
CC(C)(C)C1CCc2c(sc3nc(SCC(=O)O)nc(N)c23)C1,,,MIC,MTT / visual reading,,H37Rv,,>200 µg/mL

An empty or dashed field is not shown. Rows are shuffled and stem from different studies. A number after MIC or MFC names an inhibition level or a share of isolates. Fold resistance has wild type as its base. ECn: concentration that inhibits the pathogen or its effect by n%. MIC bound: limit read from a one-dose screen.